Results of unrelated studies side by side (data: NIAID ChemDB).

Common to all: tests on isolated targets

Lines come from different laboratories, so protocols vary.

| structure | read by | strain | target | changes | dose | read-out | agent | result |
|---|---|---|---|---|---|---|---|---|
| Nc1nc2c(ncn2[C@H]2CC[C@@H](COP(=O)(O)OP(=O)(O)OP(=O)(O)O)O2)c(=O)[nH]1 | nucleotide incorporation / radiometric | - | Reverse transcriptase | RT-N137Q | - | fold resistance | HIV | 10 |
| CCSCCNc1nnc(NC(=O)/C=C/c2ccccc2Cl)s1 | - | - | Polymerase | - | - | IC50 | Human cytomegalovirus | >25 µM |
| CSC1=NC(=O)CC(=O)N1 | - | RH | Uracil phosphoribosyltransferase | - | 2000 µM | inhibition | Toxoplasma gondii | <10% |
| CC[C@H]1C(=O)Nc2ccc(F)cc2N1C(=O)OC(C)C | nucleotide incorporation / radiometric | - | Reverse transcriptase | RT-N137Q | - | IC50 | HIV | 0.007 µM |
| O=C(/C=C/c1ccccc1Cl)Nc1nnc(NCCCn2ccnc2)s1 | - | - | Polymerase | - | - | IC50 | Human cytomegalovirus | >25 µM |
| Nc1nccnc1C(=O)O | - | RH | Uracil phosphoribosyltransferase | - | 2000 µM | inhibition | Toxoplasma gondii | <5% |
| Cc1cn([C@@H]2O[C@H](CO[Si](C)(C)C(C)(C)C)[C@@]3(OS(=O)(=O)C=C3N)[C@H]2O[Si](C)(C)C(C)(C)C)c(=O)[nH]c1=O | nucleotide incorporation / radiometric | - | Reverse transcriptase | RT-N137A | - | fold resistance | HIV | 1.1 |
| CN(CC(C)(CCN1CCC(N(CCO)C(=O)OCc2ccc([N+](=O)[O-])cc2)CC1)c1ccsc1)S(=O)(=O)c1ccccc1 | radiometric | - | CCR5 | CCR5-Y108A | - | fold resistance | - | 375 |
| O=C(Nc1nnc(NCCCN2CCCC2=O)s1)c1cc2ccccc2s1 | - | - | Polymerase | - | - | IC50 | Human cytomegalovirus | <25 µM |
| O=C(O)c1[nH]c(=O)[nH]c(=O)c1[N+](=O)[O-] | - | RH | Uracil phosphoribosyltransferase | - | - | IC50 | Toxoplasma gondii | >2000 µM |
| CCCCCCCCCCCNc1nnc(NC(=O)c2c(OCC)ccc3ccccc23)s1 | - | - | Polymerase | - | - | IC50 | Human cytomegalovirus | <25 µM |
| O=C(c1ccccc1Cl)N1C[C@H](CN2CCC(O)(CCCc3ccc(-c4nn[nH]n4)cc3)CC2)[C@@H](c2ccccc2)C1 | radiometric | - | CCR5 | CCR5-E283A | - | fold resistance | - | >909.1 |
| Nc1nccc(=O)[nH]1 | - | RH | Uracil phosphoribosyltransferase | - | - | IC50 | Toxoplasma gondii | >2000 µM |
| O=C(C1CCCCC1)N1C[C@H](CN2CCC(c3ccccc3)CC2)[C@@H](c2ccccc2)C1 | radiometric | - | CCR5 | CCR5-Y37A | - | fold resistance | - | 5.65 |
| O=C(O)c1cc(=O)[nH]c(=O)[nH]1 | - | RH | Uracil phosphoribosyltransferase | - | 2000 µM | inhibition | Toxoplasma gondii | <5% |

A second listing of 2 rows from above:

Nc1nc2c(ncn2[C@H]2CC[C@@H](COP(=O)(O)OP(=O)(O)OP(=O)(O)O)O2)c(=O)[nH]1 ; read by: nucleotide incorporation / radiometric ; target: Reverse transcriptase ; changes: RT-N137Q ; read-out: fold resistance ; agent: HIV ; result: 10
O=C(Nc1nnc(NCCCN2CCCC2=O)s1)c1cc2ccccc2s1 ; target: Polymerase ; read-out: IC50 ; agent: Human cytomegalovirus ; result: <25 µM

Percent inhibition refers to the dose given; in toxicity tests it is the harm to the cells. ICn: concentration for n% inhibition. Fold resistance: result on the changed form divided by that on wild type. Blank or dashed fields: not listed here.